According to PMC12568301 (Veterinary Sciences, 2025):

Test system: BHK-21 cells

With Gomisin A the “Toxicity to BHK-21 cells in words” value was “moderate cytotoxicity”, the CC50 (hamster) was 44 ± 1.64 µM and the “Cytotoxicity CC10 (maximum non-toxic concentration)” value (hamster) was 25.39 ± 1.40 µM.
